# Experimental data from ChEMBL document CHEMBL6120975 (2024).
# Protein sequences, listed by entry. Tags and fused reporters are not part of them.
# UniProt P36544, whole entry, looked up: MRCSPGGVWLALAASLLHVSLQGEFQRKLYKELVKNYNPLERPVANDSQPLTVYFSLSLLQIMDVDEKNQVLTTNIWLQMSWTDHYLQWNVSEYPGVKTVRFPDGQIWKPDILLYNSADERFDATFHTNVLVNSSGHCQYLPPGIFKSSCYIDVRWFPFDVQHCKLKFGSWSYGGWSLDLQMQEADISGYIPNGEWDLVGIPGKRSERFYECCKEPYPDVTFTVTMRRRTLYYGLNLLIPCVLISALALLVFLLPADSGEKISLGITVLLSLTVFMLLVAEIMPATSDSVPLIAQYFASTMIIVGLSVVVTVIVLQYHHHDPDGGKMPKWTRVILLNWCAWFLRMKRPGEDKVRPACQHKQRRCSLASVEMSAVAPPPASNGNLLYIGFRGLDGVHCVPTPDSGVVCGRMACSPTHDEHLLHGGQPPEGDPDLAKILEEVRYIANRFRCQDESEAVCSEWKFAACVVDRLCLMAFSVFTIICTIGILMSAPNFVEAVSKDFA
# Molecular target: Neuronal acetylcholine receptor subunit alpha-7 (Homo sapiens, UniProt P36544)
# Assay: Inhibition of human alpha7 nAChR expressed in acetylcholine-induced Xenopus laevis oocytes assessed as inhibition of acetylcholine-induced current by measuring fold change at 100 nM incubated for 5 mins by two electrode voltage-clamp assay
# Conditions: Oocyte
smiles,measurement,value
CC[C@H](C)[C@H](NC(=O)[C@H](CCCNC(=N)N)NC(=O)[C@H](CCCNC(=N)N)NC(=O)[C@H](Cc1ccc(O)cc1)NC(=O)[C@H](CCCNC(=N)N)NC(=O)[C@H](CCCNC(=N)N)NC(=O)[C@H](CCCNC(=N)N)NC(=O)[C@H](CCCNC(=N)N)NC(=O)[C@H](CC(=O)O)NC(=O)[C@H](Cc1ccc(O)cc1)NC(=O)[C@@H]1CCCN1C(=O)[C@H](CO)NC(=O)[C@H](CCCNC(=N)N)NC(=O)[C@H](Cc1ccc(O)cc1)NC(=O)[C@H](CCCNC(=N)N)NC(=O)CNC)C(=O)N[C@H](C(=O)N[C@@H](CC(=O)O)C(N)=O)[C@@H](C)O,fold change (FC),3
